# Test results: article PMC8133395 (Cell reports, 2021)
# B1: EBOV-515 (recombinant IgG1), Alexa Fluor 647-labelled (antibody, V domains shown)
# VH: QVQLHESGPGLVKPSQTLSLTCTVSGGSINSAGYYWTWIRQHPGKGLEWIGYIDYTGRTYYNPSLESRVIISIDTSKNHFSLRLTSVSAADTAVYYCARESSWVSELGRDNWGQGTLVTVSS
# VL: EIVMTQSPATLPVSPGEGATLSCRASQSVFTNLAWYQQKPGQAPRLLIYDASTRATGIPARFSGSGSGTEFTLTISSLQSEDFAVYYCQQYNNWPRTYGQGTRVEVK
# B2: EBOV-442 (recombinant IgG1) (antibody, V domains shown)
# VH: EVQLVESGGGLVKPGGSLRLSCTGSGGTGFTFKYAGMSWVRQAPGKGPEWIGRIKSRIDGGTTDYAAPVKDRFIVSRDDSRNTLYLQMNSLKTEDTAVYYCATGSGKGPSASFGESYYYYDFINVWGKGTTVTVSS
# VL: ESVLTQSPGTLSLSPGERATLSCRASQSISRKYLAWYQQKPGQAPRLLIYGSSSRATGIPDRFSGSGSGTDFTLTISRLEPEDFAVYYCHQYESSPWTFGQGTKVEIK
# notes: IgG1; source: ExpiCHO, transiently transfected, purified (HiTrap MabSelect Sure)
# Columns and labels:
# [1] = biological target: Cleaved EBOV GP (GPCL) displayed on Jurkat cells (Zaire ebolavirus, Makona variant …, UniProt A0A0E3TM45, strain); details: one partner purified
# [2] = biological target: EBOV GP (variant Makona) displayed on Jurkat cells (Zaire ebolavirus, Makona variant …, UniProt A0A0E3TM45, strain); details: one partner purified
Binder,binding result [1],binding result [2]
B1,binds,binds
B2,binds,binds
